We go through one substance from patent US20210222225A1, “Medium for Disk Diffusion Method to Evaluate Antibiotic Sensitivity” (priority 2018, published 2021).

The test system of this data set is 63-GN clinical isolates. Briefly: Match of colistin disk diffusion with MIC (broth micro-dilution). It is filed as cell-based. (In general: In agar diffusion tests the substance spreads into inoculated agar from a disc or well.)

Take colistin: the “resistance match rate between MIC and disk diffusion” value (P. aeruginosa and Acinetobacter strains, FIGS. 7A to 7F) is 100%. Also, the “match rate with MIC” value (P. aeruginosa, medium with agar 5.1 g/L and protamine 100 μg/ml) was determined as 100%. Further, for the setting “colistin-susceptible strain, FIGS. 7A to 7F”, the “match rate between MIC and disk diffusion, colistin-susceptible strain” value is reported as “approximately 97.8%”.
